## PSTVd loop 6 mutant pool in Nicotiana benthamiana

The measurements come from Wu et al. 2024 (doi:10.1371/journal.ppat.1012142).

PSTVd intermediate strain, loop 6: wild type UGACCGCGAG, pool pattern UNNNCGNNNG; upper and lower strand joined, each 5' to 3', the first 5 letters being the upper strand, closing pairs included.

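Three N. benthamiana plants were inoculated with the whole mutant pool. Samples came from the inoculated region at 5 days, the leaf margin at 10 and upper systemic leaves at 12.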

Values are reads per thousand in the sample; higher means more abundant, 0 means not found.
Each value is the mean of three plants.
"Pool" is the share in the plasmid pool used as inoculum, on the same scale.
The inoculated region was read from the minus strand, the other sites from the plus strand.
Samples held 36,220 to 57,551 reads, so the smallest values rest on one or two reads.

| sequence | pool | inoculated region | leaf margin | systemic leaves |
|---|---|---|---|---|
| UUCACGUGAG | 0.275 | 0.107 | 0.00920 | 0.00599 |
| UAUCCGAGGG | 0.275 | 0.0949 | 0 | 0 |
| UCCUCGUAUG | 0.248 | 0.106 | 0.109 | 0 |
| UAGACGGUGG | 0.196 | 0.101 | 0.0155 | 0 |
| UAUACGGGUG | 0.418 | 0.0895 | 0 | 0 |
| UCACCGUCAG | 0.248 | 0.578 | 0.120 | 0 |
| UAGUCGUAGG | 0.288 | 0.0654 | 0.00773 | 0 |
| UAAACGAAGG | 0.0915 | 0.0407 | 0.0155 | 0 |
| UAUCCCCGAG | 0.0131 | 0 | 0 | 0 |
| UAGACGAGAG | 0.248 | 0.166 | 0.00920 | 0 |
| UGCUCGAAUG | 0.196 | 0.119 | 0.00920 | 0 |
| UUAGCGCUGG | 0.144 | 0.0530 | 0.0169 | 0 |
| UGGACGUGGG | 0.261 | 0.149 | 0 | 0 |
| UGAUCGGCUG | 0.353 | 0.631 | 0.0800 | 0.00684 |
| UCGUCGGUUG | 0.353 | 0.102 | 0.00773 | 0 |
| UCACCGACCG | 0.144 | 0.119 | 0 | 0 |
| UCAACGCCAG | 0.183 | 0.642 | 0.0973 | 0 |
| UCCUCGCCCG | 0.235 | 0.0588 | 0 | 0 |
| UGUACCGAGG | 0.0131 | 0 | 0 | 0 |
| UAGACGAUUU | 0.0131 | 0 | 0 | 0 |
| UGUUCGGCGG | 0.275 | 0.108 | 0.00773 | 0 |
| UCGGCGAGGG | 0.248 | 0.0775 | 0 | 0 |
| UCGUCGACUG | 0.196 | 0.0409 | 0 | 0 |
| UGAGCGAAUG | 0.275 | 0.118 | 0.00773 | 0 |
| UUUUCGUGUG | 0.248 | 0.0597 | 0 | 0 |
| UCGCCGAUAG | 0.235 | 0.0722 | 0.117 | 0 |
| UGAUCGAACG | 0.261 | 0.0884 | 0.00773 | 0 |
| UUGACGUAGG | 0.327 | 0.124 | 0.00920 | 0 |
| UCAGCGAACG | 0.405 | 0.113 | 0.00773 | 0.00684 |
| UGAACGCCCG | 0.209 | 0.127 | 0 | 0 |
| UUUCCGCAGG | 0.183 | 0.118 | 0 | 0 |
| UCGACGUGCG | 0.105 | 0.131 | 0 | 0 |
| UGCACGUCAG | 0.261 | 0.101 | 0 | 0 |
| UGAGCGCAUG | 0.105 | 0.0773 | 0.00773 | 0 |
| UGGACGACCG | 0.157 | 0.114 | 0 | 0 |
| UUGCCGGCCG | 0.183 | 0.0714 | 0 | 0 |
| UCUUCGAUUG | 0.392 | 0.0999 | 0.00773 | 0 |
| UAUUCGGAGG | 0.183 | 0.0593 | 0 | 0 |
| UUACCGAGAG | 0.275 | 0.794 | 0.136 | 0 |
| UAGCCGUAAG | 0.288 | 0.0717 | 0.00920 | 0 |
| UGGGCGUUAG | 0.314 | 0.130 | 0.00920 | 0 |
| UAUGCGUUUG | 0.340 | 0.0901 | 0.00773 | 0 |
| UGUACGUCUG | 0.353 | 0.0835 | 0 | 0 |
| UGACAGAACG | 0.0261 | 0 | 0 | 0 |
| UCAACGUAUG | 0.379 | 0.130 | 0.120 | 0 |
| UAUGCGUCGG | 0.157 | 0.0719 | 0.0184 | 0 |
| UCCACGCCUG | 0.183 | 0.0715 | 0 | 0 |
| UCGGCGAGAG | 0.288 | 0.131 | 0.00773 | 0 |
| UUAGCGCCGG | 0.222 | 0.0721 | 0 | 0 |
| UCUACGAGGG | 0.235 | 0.100 | 0.00920 | 0 |
| UUGUCGGCAG | 0.353 | 0.0832 | 0.00773 | 0 |
| UGAGCGGCCG | 0.0915 | 0.0836 | 0.0155 | 0 |
| UCUGCAGCGG | 0.0523 | 0 | 0 | 0 |
| UCAUCGCGUG | 0.261 | 0.125 | 0.00773 | 0 |
| UCCCCGCCAG | 0.209 | 0.0773 | 0.00920 | 0 |
| UCGUCGAAAG | 0.118 | 0.0662 | 0.0247 | 0 |
| UCCACGUAGG | 0.248 | 0.0770 | 0 | 0 |
| UACUCGCCGG | 0.131 | 0.107 | 0.00773 | 0 |
| UAAGCGUCAG | 0.301 | 0.657 | 0.118 | 0.0538 |
| UUCCCGAACG | 0.288 | 0.0714 | 0 | 0 |
| UUCCCGCGGG | 0.314 | 0.0838 | 0.00773 | 0 |
| UACUCGAAUG | 0.235 | 0.0891 | 0 | 0.00599 |
| UAAGCGAGAG | 0.353 | 0.148 | 0.0246 | 0 |
| UUAGCGUCCG | 0.288 | 0.0836 | 0 | 0 |
| UUGUCGCGGG | 0.248 | 0.0900 | 0.00920 | 0 |
| UAAACGGUAG | 0.209 | 0.663 | 0.0796 | 0 |
| UAGUCGUCUG | 0.275 | 0.0905 | 0 | 0.00673 |
| UUAACGGUGG | 0.261 | 0.0896 | 0.00920 | 0 |
| UAUACGAUUG | 0.588 | 0.0773 | 0 | 0 |
| UGGACGUCGG | 0.196 | 0.113 | 0.00773 | 0 |
| UGCUCGCCCG | 0.288 | 0.0769 | 0.00920 | 0 |
| UACCCGAUAG | 0.261 | 0.0947 | 0.289 | 0 |
| UAGUCGUUGG | 0.340 | 0.112 | 0.00773 | 0 |

For reference, wild type rose from 20.7 per thousand in the pool to 195, 198, 203 (inoculated region), 629, 591, 734 (leaf margin) and 942, 870, 868 (systemic leaves).
The authors trace changes outside the varied positions to PCR and sequencing errors or to mutation in the plant; presence does not show that a variant is infectious alone.